Laboratory results reported in publication PMC13068334, “Host range and zoonotic potential linked to P-like fimbrial (PLF) adhesin specificity in avian pathogenic Escherichia coli” (PLOS Pathogens, 2026).

Tested on: T1, PlfG class II (PlfG II, PL fimbrial adhesin of APEC strain QT598)
T1 construct: adhesin not purified
Experiment: hemagglutination inhibition, microtiter
Assay type: cell-based, Escherichia coli
Conditions: PL-fimbriated bacteria (QT5726 / QT598); turkey and human O+ erythrocytes; PBS; on ice 30 min; anomer not specified

OC[C@H]1OC(O)[C@H](O)[C@@H](O)[C@H]1O (stereo partly drawn) [D-galactose]
minimal HA inhibition concentration: 15 mM

C[C@@H]1OC(O)[C@@H](O)[C@H](O)[C@@H]1O (stereo partly drawn) [L-fucose]
minimal HA inhibition concentration: 15 mM
